Measured values from several laboratories, pooled; numbers as filed in NIAID ChemDB.

Shared fields: tests in culture; species: HIV-1

ECn: concentration that inhibits the pathogen or its effect by n%.

structure,cells,strain or isolate,measure,read by,mutations,value
Cc1cn([C@H]2C[C@H](N=[N+]=[N-])[C@@H](CO)O2)c(=O)[nH]c1=O,PBMC,NL4-3 X4,EC50,p24,-,0.011 µM
Cc1cn([C@H]2C=C[C@@H](CO)O2)c(=O)[nH]c1=O,MT-4,NL4-3,EC50,-,-,0.962 µM
O=S1(c2ccccc2)=NC(=S)Nc2ccccc21,CEM + CEM-SS,PM16,EC50,cytopathic effect / XTT,-,5.11 µM
CC1=C(C(=O)Nc2ccc(Cl)c(C(=O)OC(C)C)c2)SCCO1,CEM + CEM-SS,UC38-R(RT-Y181C,EC50,cytopathic effect / XTT,RT-Y181C,1.2 µM
Cc1nnc(C(=O)NC(C)(C)c2nc(C(=O)NCc3ccc(F)cc3)c(O)c(=O)n2C)o1,Primary T lymphocytes,NL4-3,EC50,-,+Vpx,0.015 µM
CCCc1cc(=O)oc2c3c(c4c(c12)OC(C)(C)C=C4)O[C@@H](C)[C@H](C)[C@@H]3O,CEM + CEM-SS,Costatolide-resistant (RT Y188H),EC50,XTT,RT-Y188H,>27 µM
Cn1c(CN(CCN2CCCCC2)CC2CCCN(C3CCCC3)C2)nc2ccccc21,MAGI,BaL,EC50,β-galactosidase,-,>10 µM
NS(=O)(=O)c1ccc(SSc2ccc(S(N)(=O)=O)cc2[N+](=O)[O-])c([N+](=O)[O-])c1,Macrophage + Monocytes/macrophages,ADA,EC50,XTT / p24,-,42 µM
Cc1ccc2c(c1)C1=NCCCN1C(=N)S2,MT-4,IIIB,EC50,MTT,-,2.1 µM
Cc1ccnc2c1NC(=O)c1cccnc1N2C1CC1,MT-4,Recombinant,EC50,cytopathic effect / MTT,RT-L100I K103N,1.452 µM
CC[C@H](C)[C@@H](C(=O)O)n1sc2ccccc2c1=O,Macrophage,BaL,EC50,p24 / RT activity,-,6.5 µM
COc1ccc(CN(CCN2CCCCC2)CC2CCCN(C3CCCC3)C2)cc1O,PBMC,NL4-3,EC50,p24,-,4.6 µM
Nc1ccn([C@H]2CC[C@@H](CO)O2)c(=O)n1,MT-4,NL4-3,EC50,-,-,0.292 µM
N=C1Sc2cc(-c3ccccc3-c3ccccc3)ccc2C2=NCCCN12,MT-4,IIIB,EC50,MTT,-,0.89 µM
COc1cc(SSc2cc(OC)cc([N+](=O)[O-])c2N)c(N)c([N+](=O)[O-])c1,CEM + CEM-SS,RF,EC50,cytopathic effect / XTT,-,0.47 µM
Cc1ccnc2c1NC(=O)c1cccnc1N2C1CC1,MT-4,IIIB,EC50,cytopathic effect / MTT,-,0.05 µM
O=C1N=S(=O)(c2ccccc2)c2ccccc2N1,MT-2,IIIB,EC50,cytopathic effect / XTT,-,215 µM
O=c1[nH]cnc2c1ncn2[C@H]1CC[C@@H](CO)O1,PBMC,XM-ABC-resistant,EC90,p24,RT-K65R L74V M184V Y115F,38 µM
CC(=O)C1(c2ccccc2)C(=O)C=C2N(C1=O)c1ccc(Cl)cc1C2(C)C,MT-4,RF,EC50,cytopathic effect / MTT,-,6.5 µM
CO[P@](=O)(c1cc(C)cc(/C=C/C#N)c1)c1c(C(N)=O)[nH]c2ccc(Cl)cc12,MT-2,Clinical isolate,EC50,-,Y181C,0.0015 µM
O=C(CSc1nnnn1-c1cccc(Cl)c1Cl)Nc1ccccc1Cl,MT-4,-,EC50,p24,-,<10 µM
O=c1[nH]cnc2c1ncn2[C@H]1CC[C@@H](CO)O1,Jurkat cells,NL4-3,EC50,-,+Vpx,2.572 µM
Cc1cn([C@H]2C[C@H](N=[N+]=[N-])[C@@H](CO)O2)c(=O)[nH]c1=O,MT-4,RF,EC50,cytopathic effect / MTT,-,0.04 µM
Cc1cn([C@H]2C[C@H](N=[N+]=[N-])[C@@H](CO)O2)c(=O)[nH]c1=O,CEM + CEM-SS,PM16,EC50,cytopathic effect / XTT,-,0.013 µM
Cc1cc(C)cc(S(=O)(=O)c2c(C(=O)NNCCO)[nH]c3ccc(Cl)cc23)c1,Macrophage + Macrophages,BAL R5,EC50,p24,-,0.02 µM
Cc1cc(C)c(-n2nnnc2SCC(=O)Nc2cc([N+](=O)[O-])ccc2Cl)c(C)c1,MT-4,-,EC95,p24,-,<10 µM
CN=C1CN=C(c2ccc[nH]2)c2cc(Cl)ccc2N1,PBL,N1T,EC50,p24,-,0.5 µM
CCCc1cc(=O)oc2c3c(c4c(c12)OC(C)(C)C=C4)O[C@H](C)[C@@H](C)[C@@H]3O,CEM + CEM-SS,NL4-3,EC50,XTT,RT-V179D,0.05 µM
Cc1cc(C)c(-n2nnnc2SCC(=O)Nc2cccc(F)c2F)c(C)c1,MT-4,-,EC50,p24,-,<10 µM
Cc1cn([C@H]2C[C@H](N=[N+]=[N-])[C@@H](CO)O2)c(=O)[nH]c1=O,PBMC,NL-XM WT,EC50,p24,-,<0.12 µM
NC1=Nc2c(ncn2CCCCCP(=O)(O)O)C(=O)C1,MT-4,RF,EC50,cytopathic effect / MTT,-,>320 µM
CC1(C)C2=CC(=O)C(O)(c3ccccc3)C(=O)N2c2ccc(Cl)cc21,PBMC/1(CC1) + PBMC,CC1,EC50,p24,-,0.08 µM
CCCN(C)c1c(Cc2cc(C)cc(C)c2)c(CC)c(C)[nH]c1=O,MT-4,Recombinant,EC50,cytopathic effect / MTT,RT-Y188L,0.398 µM
Cc1c(O)cccc1C(=O)N[C@@H](CSc1ccccc1)[C@H](O)CN1C[C@H]2CCCC[C@H]2C[C@H]1C(=O)NC(C)(C)C,PBMC,NL4-3 X4,EC50,p24,-,0.02 µM
C=Cc1ccc2c(c1)C1=NCCCN1C(=N)S2,MT-4,IIIB,EC50,MTT,-,2.3 µM
Cc1cc(C)c(-n2nnnc2SCC(=O)Nc2ccc(C#N)cc2Cl)c(C)c1,MT-4,-,EC50,p24,-,<10 µM
Nc1cc(C(=O)O)ccc1SSc1ccc(C(=O)O)cc1N,CEM + CEM-SS,RF,EC50,cytopathic effect / XTT,-,31.2 µM
CC(C)[C@H](NC(=O)c1ccc2ccccc2n1)C(=O)N[C@@H](Cc1ccccc1)[C@H](O)CN1CC[C@@H](OCc2ccncc2)C[C@H]1C(=O)NC(C)(C)C,C8166,DDIR,EC50,p24 / ELISA / antigen,-,0.0062 µM
c1cc(CN2CCCNCCNCCCNCC2)ccc1CN1CCCNCCNCCCNCC1,MT-4,NL4-3,EC50,MTT,-,0.02 µM
Cc1ccnc2c1NC(=O)c1cccnc1N2C1CC1,PBMC,SLKA(SI),EC50,RT activity,-,0.2 µM
CC(C)Nc1cccnc1N1CCN(C(=O)c2cc3cc(NS(C)(=O)=O)ccc3[nH]2)CC1,Macrophage + Monocytes/macrophages,BaL,EC50,p24,RT-P236L,7.4 µM
CC(=O)c1ccc2c(c1)SC(=N)N1CCCN=C21,MT-4,IIIB,EC50,MTT,-,6.6 µM
CC(C)CN(C[C@@H](O)[C@H](Cc1ccccc1)NC(=O)O[C@H]1CCOC1)S(=O)(=O)c1ccc(N)cc1,PBMC,Clinical isolates,EC50,p24,-,0.08 µM
COC(=S)SSC(=S)NCCN(CCNC(=S)SSC(=S)OC)C(=S)SSC(=S)OC,CEM + CEM-SS,RF,EC50,cytopathic effect / XTT,-,79 µM
Cc1ccc(S(=O)(=O)c2c(C(=O)NNCCO)[nH]c3ccc(Cl)cc23)c(C)c1,Macrophage + Macrophages,BAL R5,EC50,p24,-,12 µM
Cc1cc(C)c(-n2nnnc2SCC(=O)Nc2cccc(F)c2C#N)c(C)c1,MT-4,-,EC95,p24,-,<10 µM
CCO/N=C(\c1ccc(Br)cc1)C1CCN(C2(C)CCN(C(=O)c3c(C)cc[n+]([O-])c3C)CC2)CC1,PBMC,BAL R5,EC90,p24,-,0.079 µM
Cc1cc(C)c(-n2nnnc2SCC(=O)Nc2ccccc2C#N)c(C)c1,MT-4,-,EC50,p24,-,<10 µM
Cc1ccnc2c1NC(=O)c1cccnc1N2C1CC1,PBMC,BaL,EC50,p24,RT-P236L,0.2 µM
CC(C)(C)NC(=O)[C@@H]1C[C@@H]2CCCC[C@@H]2CN1C[C@@H](O)[C@H](Cc1ccccc1)NC(=O)[C@H](CC(N)=O)NC(=O)c1ccc2ccccc2n1,PBMC,BAL R5,EC90,p24,-,0.06 µM
O=C(O)Cc1ccc(SSc2ccc(CC(=O)O)cc2)cc1,CEM + CEM-SS,RF,EC50,cytopathic effect / XTT,-,23.1 µM
Cc1cc(C)c(-n2nnnc2SCC(=O)Nc2ccc(S(N)(=O)=O)cc2Cl)c(C)c1,MT-4,-,EC50,p24,-,<10 µM
Cc1cc(C)cc(S(=O)(=O)c2c(C(N)=O)[nH]c3ccc(Cl)cc23)c1,MT-4,IIIB,EC50,cytopathic effect / MTT,-,0.006 µM
O=C(CSc1nnnn1-c1ccc2c(c1)OCO2)Nc1ccccc1Cl,MT-4,-,EC95,p24,-,<10 µM
Cc1cn([C@H]2C[C@H](N=[N+]=[N-])[C@@H](CO)O2)c(=O)[nH]c1=O,CEM + CEM-SS,NL4-3,EC50,XTT,RT-V108I,0.008 µM
Nc1ncnc2c1ncn2CCOCP(=O)(O)O,MT-4,RF,EC50,cytopathic effect / MTT,-,20 µM

Again, the opening 3 rows:

Cc1cn([C@H]2C[C@H](N=[N+]=[N-])[C@@H](CO)O2)c(=O)[nH]c1=O ; cells: PBMC ; strain or isolate: NL4-3 X4 ; measure: EC50 ; read by: p24 ; value: 0.011 µM
Cc1cn([C@H]2C=C[C@@H](CO)O2)c(=O)[nH]c1=O ; cells: MT-4 ; strain or isolate: NL4-3 ; measure: EC50 ; value: 0.962 µM
O=S1(c2ccccc2)=NC(=S)Nc2ccccc21 ; cells: CEM + CEM-SS ; strain or isolate: PM16 ; measure: EC50 ; read by: cytopathic effect / XTT ; value: 5.11 µM

An empty or dashed field is not shown. Neighbouring rows are from separate reports.